Results deposited as PubChem BioAssay AID504761 (Drosophila RNAi Screening Center, 2011).

Test: 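Fly genes whose silencing reduces dengue virus type 2 infection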 (primary screen)
Cell system: D.Mel-2 cells from Drosophila
Knock-down reagent: long dsRNA against Drosophila genes
Challenge: infection with dengue virus type 2; dose and infection time not stated
Measured: 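Per well on two replicate plates, imaging gave the percent of cells positive for viral envelope protein, ranked by infection, and a nuclear count of cells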
Scale: infection score: higher = more virus-infected cells
Rule for the call: 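Very low infection ranking in both replicate wells (chance probability at most 0.065), then a retest showing infection dropped 1.5-fold or more at p below 0.05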
Calls: active = confirmed: knock-down lowers infection; inactive = not picked or not confirmed
In all, the deposit lists about 22,000 reagents; shown is a random part of those that have a named target and a result. Over the whole deposit, 116 (0.52%) are marked active. 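Calls depend on retest data that are not deposited; infection was ranked per plate without normalising between plates; the unit of the infection score is not given.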 Entries without a mark were called inactive. The numbers tell different reagents against one gene apart. A plus sign joins genes that one reagent is predicted to hit. Further read-outs or replicates are left out here. The record does not give: the amount of reagent, the time to read-out.

CG11698
- infection score, replicate 1: 2.15

spn-D (spindle D)
- infection score, replicate 1: 12.7

CG31265 #1
- infection score, replicate 1: 3.73

CG31265 #2
- infection score, replicate 1: 8.61

Eno (Enolase)
- infection score, replicate 1: 8.44

CG33454 #1
- infection score, replicate 1: 1.62

CG33454 #2
- infection score, replicate 1: 6.41

CG33695 + cana #1
- infection score, replicate 1: 5.52

CG33695 + cana #2
- infection score, replicate 1: 20.8

CG6972 #1
- infection score, replicate 1: 1.8

CG6972 #2
- infection score, replicate 1: 1.2

mrj #1
- infection score, replicate 1: 3.12

mrj #2
- infection score, replicate 1: 3.77

Aldh-III (Aldehyde dehydrogenase type III) #1
- infection score, replicate 1: 2.6

Aldh-III (Aldehyde dehydrogenase type III) #2
- infection score, replicate 1: 7.4
